PubChem BioAssay AID624099 | ICCB-Longwood – 2012

- Screen: 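Human genes that papillomavirus E2 requires to repress the HPV18 LCR promoter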 (primary screen)
- Cells: human C33A cervical carcinoma cells (HPV-negative) stably expressing BPV1 E2 and an HPV18 LCR luciferase reporter
- Knock-down reagent: siRNA pool against human genes, 40 nM
- Time to read-out: 72 h
- Measured: 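Per-well luciferase luminescence, z-scored on each plate against the plate mean and SD with control wells left out, then averaged across three replicate plates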
- Scale: mean z-score and z-score: higher = stronger reporter signal, weaker E2 silencing
- Active means: 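Hit if mean z-score reaches 2 and two or more of three replicate z-scores also reach 2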
The deposit covers about 21,000 reagents; below is an unselected part. Of all reagents, 497 (2.4%) are marked active. 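Higher z means weaker E2 silencing; only reporter increases were scored, and knock-downs that hurt cell survival may mask genuine repressor factors.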 Entries without a mark were called inactive. Reagents against one gene are numbered here.

| target | reagent no. | mean z-score | z-score, replicate A | z-score, replicate B | z-score, replicate C |
| --- | --- | --- | --- | --- | --- |
| RPS25P6 (GeneID 401206) | 1 | -0.55 | -0.78 | -0.63 | -0.25 |
| AFAP1 (GeneID 60312) | 1 | -0.52 | -0.29 | -0.57 | -0.71 |
| DOK7 (GeneID 285489) | 1 | 0.46 | 0.27 | 0.37 | 0.74 |
| PEX6 (GeneID 5190) | 1 | -0.28 | -0.01 | -0.38 | -0.44 |
| ZNF479 (GeneID 90827) | 1 | -0.99 | -0.98 | -0.86 | -1.12 |
| ERI2 (GeneID 112479) | 1 | -0.01 | -0.16 | -0.07 | 0.19 |
| EVA1C (GeneID 59271) | 1 | -0.04 | -0.3 | -0.15 | 0.34 |
| TDG (GeneID 6996) | 1 | 0.8 | 0.79 | 0.65 | 0.97 |
| LOC402620 (retired record) (GeneID 402620) | 1 | 0.66 | 0.66 | 0.74 | 0.59 |
| NAIP (GeneID 4671) | 1 | -0.71 | -0.57 | -0.64 | -0.91 |
| TRIM64 (GeneID 120146) | 1 | -0.33 | -0.45 | -0.36 | -0.17 |
| LOC402269 (retired record) (GeneID 402269) | 1 | -0.46 | -0.64 | -0.38 | -0.35 |
| INSYN1 (GeneID 388135) | 1 | 0.33 | 0.68 | 0.12 | 0.2 |
| TCEAL2 (GeneID 140597) | 1 | 2.24 (active) | 2.21 | 2.28 | 2.24 |
| KLK1 (GeneID 3816) | 1 | -0.4 | -0.44 | -0.63 | -0.12 |
| SPC24 (GeneID 147841) | 1 | 0.52 | 0.18 | 1.02 | 0.35 |
| TRIM7 (GeneID 81786) | 1 | -0.24 | -0.39 | -0.3 | -0.04 |
| CDC50A (GeneID 55754) | 1 | -0.79 | -0.62 | -1.02 | -0.73 |
| XPO6 (GeneID 23214) | 1 | 0.35 | 0.42 | 0.33 | 0.29 |
| FAM74A4 (GeneID 401508) | 1 | -0.24 | 0.14 | -0.39 | -0.47 |
| ACOXL-AS1 (GeneID 400997) | 1 | 2.14 | 1.65 | 1.78 | 2.98 |
| ITGA9 (GeneID 3680) | 1 | -0.22 | -0.12 | -0.43 | -0.11 |
| NECAB1 (GeneID 64168) | 1 | -0.77 | -1.11 | -0.59 | -0.63 |
| PROKR1 (GeneID 10887) | 1 | -1.15 | -1.61 | -1.04 | -0.8 |
| LOC402525 (retired record) (GeneID 402525) | 1 | -0.24 | -0.22 | 0.04 | -0.54 |
| SLC75A1 (GeneID 10227) | 1 | -0.47 | -0.39 | -0.37 | -0.66 |
| CYP2B6 (GeneID 1555) | 1 | -0.51 | -1.14 | -0.73 | 0.35 |
| TP53INP2 (GeneID 58476) | 1 | 0.78 | 0.93 | 1.02 | 0.39 |
| FRMD3 (GeneID 257019) | 1 | -0.14 | 0.33 | -0.22 | -0.53 |
| KLHL28 (GeneID 54813) | 1 | -0.78 | -0.92 | -0.77 | -0.65 |
| ADGRE5 (GeneID 976) | 1 | 0.44 | 0.53 | 0.32 | 0.46 |
| TOR1AIP2 (GeneID 163590) | 1 | 0.81 | 0.71 | 0.78 | 0.95 |
| TOR1AIP2 (GeneID 163590) | 2 | -0.13 | 0.36 | -0.75 | 0.01 |
| ARF1 (GeneID 375) | 1 | -0.99 | -0.72 | -1.22 | -1.01 |
| GSTA4 (GeneID 2941) | 1 | 0.21 | -0.07 | 0.34 | 0.35 |
| POFUT1 (GeneID 23509) | 1 | -0.77 | -0.76 | -0.86 | -0.69 |
| TOMM5 (GeneID 401505) | 1 | 0.4 | 0.9 | 0.09 | 0.21 |
| PRPSAP2 (GeneID 5636) | 1 | -0.23 | -0.81 | -0.1 | 0.22 |
| HSP90B1 (GeneID 7184) | 1 | 0.88 | 0.96 | 0.83 | 0.86 |
| NEK11 (GeneID 79858) | 1 | -0.53 | -0.59 | 0.1 | -1.09 |
| PRDM14 (GeneID 63978) | 1 | -0.41 | -0.46 | -0.66 | -0.12 |
| PRSS42P (GeneID 339906) | 1 | 0.34 | 0.35 | 0.04 | 0.62 |
| PALB2 (GeneID 79728) | 1 | -0.6 | -0.16 | -1.1 | -0.56 |
| ZNF892 (GeneID 344065) | 1 | 2.26 | 1.85 | 3.17 | 1.76 |
| PLAU (GeneID 5328) | 1 | -0.13 | -0.5 | 0 | 0.12 |
| SBF1 (GeneID 6305) | 1 | 0.52 | 0.41 | 0.39 | 0.77 |
| DDB1 (GeneID 1642) | 1 | 0.5 | 0.77 | 0.33 | 0.39 |
| TXNDC12 (GeneID 51060) | 1 | 1.37 | 1.3 | 1.79 | 1.03 |
| LINC02908 (GeneID 401563) | 1 | -0.42 | -0.53 | -0.33 | -0.39 |
| CORO1A (GeneID 11151) | 1 | 0.68 | 0.77 | 0.78 | 0.49 |
| DCPH1 (GeneID 79624) | 1 | 0.16 | -0.04 | 0.37 | 0.14 |
| BRINP1 (GeneID 1620) | 1 | 0.89 | 0.67 | 0.97 | 1.04 |
| LOC401628 (retired record) (GeneID 401628) | 1 | 0.39 | 0.34 | 0.67 | 0.14 |
| ESR1 (GeneID 2099) | 1 | 0.34 | 0.46 | 0.1 | 0.46 |
| SLCO6A1 (GeneID 133482) | 1 | 0.29 | 0.24 | -0.04 | 0.68 |
| ART4 (GeneID 420) | 1 | 0.34 | 0.41 | 0.39 | 0.22 |
| LOC399951 (retired record) (GeneID 399951) | 1 | -0.17 | -0.42 | -0.49 | 0.39 |
| LOC401859 (retired record) (GeneID 401859) | 1 | -0.05 | 0.45 | -0.07 | -0.53 |
| AKR1C6P (GeneID 389932) | 1 | -1.08 | -1.04 | -1.32 | -0.87 |
| ENKD1 (GeneID 84080) | 1 | -0.17 | 0.03 | -0.03 | -0.52 |
| SDCCAG8 (GeneID 10806) | 1 | -0.26 | -0.36 | -0.08 | -0.35 |
| LYZ (GeneID 4069) | 1 | -0.53 | -0.68 | -0.55 | -0.35 |
| CD2AP (GeneID 23607) | 1 | 0.91 | 1.17 | 0.96 | 0.6 |
| ADD2 (GeneID 119) | 1 | -0.51 | -0.12 | -0.61 | -0.79 |
| KIFBP (GeneID 26128) | 1 | -0.85 | -1.05 | -0.71 | -0.8 |
| XPO1 (GeneID 7514) | 1 | -1.28 | -1.24 | -1.27 | -1.33 |
| DNAJB13 (GeneID 374407) | 1 | -0.95 | -0.79 | -0.77 | -1.3 |
| IGF1R (GeneID 3480) | 1 | 0.33 | 0.28 | 0.27 | 0.43 |
| DNAJC5G (GeneID 285126) | 1 | -0.54 | -0.64 | -0.52 | -0.45 |
| GRINA (GeneID 2907) | 1 | 0.01 | -0.15 | 0.05 | 0.11 |
| FAM153A (GeneID 285596) | 1 | -0.01 | 0.04 | -0.06 | 0 |
| ARG1 (GeneID 383) | 1 | 0.29 | 0.17 | 0.4 | 0.3 |
| TTC6 (GeneID 319089) | 1 | -0.37 | -0.34 | -0.65 | -0.13 |
| TTC6 (GeneID 319089) | 2 | -0.19 | 0.14 | -0.66 | -0.05 |
